Taken from: PubChem BioAssay AID504761 (Drosophila RNAi Screening Center, 2011)
The screen tested about 22,000 reagents; shown is an unselected part of those that have a named target and a result. In the full data, 116 (0.52%) were called active. 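Calls depend on retest data that are not deposited; infection was ranked per plate without normalising between plates; the unit of the infection score is not given.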 The raw values are shown without normalisation. Entries without a mark were called inactive. Reagents against one gene are numbered here. Names joined by + are all predicted targets of the reagent. Not given: the amount of reagent, the time to read-out.

Assay: 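Genome-wide fly cell screen for genes dengue virus requires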 (primary screen)
System: D.Mel-2 cells from Drosophila
Reagents: long dsRNA against Drosophila genes
Conditions: infection with dengue virus type 2; dose and infection time not stated
Detection: 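Per well on two replicate plates, imaging gave the percent of cells positive for viral envelope protein, ranked by infection, and a nuclear count of cells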
Direction: infection score: higher = more virus-infected cells; cell count: higher = more cells in the well
Call rule: 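Very low infection ranking in both replicate wells (chance probability at most 0.065), then a retest showing infection dropped 1.5-fold or more at p below 0.05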
Calls: active = confirmed: knock-down lowers infection; inactive = not picked or not confirmed

gene | reagent | infection score, replicate 1 | infection score, replicate 2 | cell count, replicate 1 | cell count, replicate 2
dtn | 1 | 3.55 | 5.21 | 6060 | 6276
dtn | 2 | 10.2 | 9.51 | 6466 | 6550
peo | 1 | 12 | 12.9 | 5935 | 6194
CG14756 | 1 | 9.07 | 8.21 | 5633 | 6477
CG14756 | 2 | 10.4 | 7.27 | 4891 | 5697
bmm | 1 | 5.06 | 6.58 | 6739 | 6762
Fit1 | 1 | 17.8 | 8.9 | 5695 | 5732
Fit1 | 2 | 4.05 | 2.28 | 5929 | 6402
ND-49L | 1 | 3.07 | 9.12 | 6410 | 6339
ND-49L | 2 | 10.8 | 7.64 | 6550 | 6744
CG4836 | 1 | 7.63 | 2.18 | 6767 | 6295
CG4836 | 2 | 3.24 | 0.88 | 6349 | 6135
CG3308 | 1 | 10.3 | 3.64 | 6522 | 6914
CG9970 | 1 | 1.35 | 5.65 | 6215 | 5802
CG17768 + LSm-4 | 1 | 31.1 | 21.8 | 3383 | 4250
CG3328 | 1 | 39.6 | 26.9 | 5596 | 5492
CG3328 | 2 | 8.74 | 3.21 | 6156 | 5322
CG12861 | 1 | 14.4 | 0.57 | 5688 | 522
CG12861 | 2 | 5.17 | 8.93 | 6629 | 6507
CG12861 | 3 | 11.6 | 7.96 | 5774 | 5766
CG15082 | 1 | 2.57 | 0.67 | 6184 | 6449
CG15082 | 2 | 13.4 | 8.58 | 6715 | 2191
bs | 1 | 1.69 | 19.4 | 5696 | 6384
bs | 2 | 3.33 | 0.96 | 6210 | 6138
CG8516 | 1 | 3.87 | 7.61 | 6433 | 6295
snky | 1 | 2.47 | 0.85 | 6241 | 6826
CG9083 | 1 | 23 | 22.8 | 4979 | 5268
CG9083 | 2 | 2.64 | 1.77 | 5304 | 4912
Lim1 | 1 | 8.6 | 9.97 | 6708 | 6658
CG11060 | 1 | 2.64 | 24.4 | 6544 | 5381
unc-5 | 1 | 13.3 | 6.8 | 6518 | 6548
unc-5 | 2 | 4.39 | 2.27 | 6212 | 6920
unc-5 | 3 | 15.8 | 12.9 | 6143 | 6892
igl | 1 | 12.3 | 4.55 | 5871 | 6632
igl | 2 | 7.24 | – | 1354 | 332
CG31516 | 1 | 3.62 | – | 6052 | –
B-H2 | 1 | 2.19 | 2.72 | 6494 | 6573
B-H2 | 2 | 9.3 | 7.85 | 6267 | 5668
CG17738 | 1 | 5.39 | 19.1 | 6770 | 6272
CG17738 | 2 | 13.7 | 8.79 | 2735 | 3002
CG6428 | 1 | 3.6 | 12.1 | 7223 | 3755
CG32266 | 1 | 4.21 | 3.53 | 6288 | 5607
CG32266 | 2 | 21.4 | 12.8 | 5686 | 688
grp + CG31782 (retired record) | 1 | 9.8 | 2.53 | 6957 | 6356
beta-Man | 1 | 11.8 | 4.76 | 4880 | 6529
beta-Man | 2 | 0.61 | 1.44 | 656 | 6311
alc | 1 | 7.21 | 13.3 | 6230 | 6491
alc | 2 | 2.11 | 2.65 | 6393 | 6613
alc | 3 | 1.2 | 0.93 | 4331 | 4208

Just “cell count, replicate 1” (7 entries from above):
igl #2: 1354
CG31516: 6052
B-H2 #1: 6494
B-H2 #2: 6267
CG17738 #1: 6770
CG17738 #2: 2735
CG6428: 7223

The list goes on:
gene | reagent | infection score, replicate 1 | infection score, replicate 2 | cell count, replicate 1 | cell count, replicate 2
Gagr | 1 | 9.1 | 4.86 | 6459 | 6932
CG32024 | 1 | 2.29 | – | 7072 | 417
CG14646 | 1 | 8.59 | 17.2 | 6145 | 6417
CG14646 | 2 | 0.53 | 3.44 | 6424 | 6358
CG12016 + Dpm2 | 1 | 13 | 11.6 | 6004 | 2591
CG12016 + Dpm2 | 2 | 2.44 | 3.48 | 7331 | 7005
Muc68E | 1 | 1.07 | 1.04 | 6163 | 6182
Muc68E | 2 | 1.95 | 5.42 | 5944 | 5724
CG13723 | 1 | 1.3 | 1.62 | 6389 | 6340
CG2267 | 1 | 2.68 | 12.7 | 1008 | 3616
CG42376 + cin | 1 | 3.48 | 9.19 | 6386 | 6832
CG42376 + cin | 2 | 23.3 | 12.4 | 4703 | 6147
CG3600 (retired record) | 1 | 5.47 | 2.27 | 5425 | 5728
CG3600 (retired record) | 2 | 2.63 | 8.14 | 6643 | 6300
CG7365 | 1 | 17.5 | 2.87 | 5118 | 6313
CG7365 | 2 | 4.61 | 11.7 | 1713 | 2118
comr | 1 | 6.87 | 5.96 | 6522 | 6659
CG9919 | 1 | 11.9 | 4.72 | 6425 | 6329
CR40441 | 1 | 1.2 | 2.25 | 6832 | 7319
Hrb87F | 1 | 6.47 | 11.2 | 5597 | 5578
Hrb87F | 2 | 24.9 | 16.1 | 4966 | 3194
CG14556 | 1 | 1.55 | 6.63 | 7345 | 4753
CG3420 | 1 | 11.9 | 13.5 | 6017 | 5738
CG11585 | 1 | 1.35 | 3.84 | 5987 | 6607
CG11585 | 2 | 13.7 | 13.6 | 5105 | 6428
